# Sequence variants of PSTVd loop 15 after infection

Data from the supplement of Wu et al. 2024, doi:10.1371/journal.ppat.1012142.

Region: loop 15 of PSTVd (intermediate strain), upper and lower strand joined, each 5' to 3', the first 7 letters being the upper strand, closing pairs included. Wild type: GGAAACCGCUACUAC. Varied positions (N): GGAAACCGNNNNNNC.

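A pool of all variants was put on leaves of three Nicotiana benthamiana plants. Samples came from the inoculated region at 5 days, the leaf margin at 10 and upper systemic leaves at 12.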

Values are reads per thousand in the sample; higher means more abundant, 0 means not found.
Each value is the mean of three plants.
"Pool" is the share in the plasmid pool used as inoculum, on the same scale.
The inoculated region was read from the minus strand, the other sites from the plus strand.
With 43,870-66,106 reads a sample, very low values are single reads.

| sequence | pool | inoculated region | leaf margin | systemic leaves |
|---|---|---|---|---|
| GGAAACCGCCCUUGC | 0.224 | 0.0776 | 0 | 0 |
| GGAAACCGGGUGGGC | 0.208 | 0.0668 | 0.0175 | 0.0183 |
| GGAAACCGUCACUUC | 0.224 | 0.300 | 0.120 | 0.0511 |
| GGAAACCGAGUAUUC | 0.240 | 0.103 | 0.0236 | 0.00760 |
| GGAAACCGAAAUCGC | 0.208 | 0.0623 | 0.0134 | 0 |
| GGAAACCGACAAUAC | 0.224 | 0.318 | 0.0867 | 0.0771 |
| GGAAACCGCAAACAC | 0.256 | 0.380 | 0.135 | 0.0161 |
| GGAAACCGAAGCUGC | 0.192 | 0.151 | 0.00742 | 0 |
| GGAAACCGCUACACC | 0.176 | 0.114 | 0.0134 | 0.00537 |
| GGAAACCGAUUCCGC | 0.336 | 0.184 | 0.0249 | 0.00537 |
| GGAAACCGUACUGUC | 0.224 | 0.110 | 0.00539 | 0 |
| GGAAACCGGAGAGUC | 0.0800 | 0.0974 | 0.0108 | 0 |
| GGAAACCGGCUCUUC | 0.224 | 0.0730 | 0.00668 | 0 |
| GGAAACCGGUCGGUC | 0.112 | 0.105 | 0.00539 | 0 |
| GGAAACCGUCUUUCC | 0.112 | 0.137 | 0.0121 | 0 |
| GGAAACCGGAUUACC | 0.144 | 0.0677 | 0 | 0 |
| GGAAACCGUCAUGGC | 0.240 | 0.100 | 0.0134 | 0 |
| GGAAACCGCUCAAGC | 0.160 | 0.0893 | 0.0121 | 0 |
| GGAAACCGUGCCUUC | 0.240 | 0.291 | 0.118 | 0.0107 |
| GGAAACCGCUACCUC | 0.192 | 0.286 | 0.0949 | 0.0215 |
| GGAAACCGAAGUUGC | 0.160 | 0.0633 | 0.0187 | 0 |
| GGAAACCGUGUAACC | 0.176 | 0.0739 | 0.0108 | 0 |
| GGAAACCGGAUAUGC | 0.272 | 0.0498 | 0 | 0 |
| GGAAACCGCGAUUAC | 0.240 | 0.300 | 0.0469 | 0.0714 |
| GGAAACCGUUGUCCC | 0.208 | 0.106 | 0.0187 | 0 |
| GGAAACCGAUACUGC | 0.272 | 0.345 | 0.146 | 0.0534 |
| GGAAACCGCAGUGCC | 0.272 | 0.0380 | 0.0121 | 0 |
| GGAAACCGUGGGUGC | 0.288 | 0.341 | 0.0934 | 0.0215 |
| GGAAACCGGACCGCC | 0.288 | 0.163 | 0.0282 | 0.0161 |
| GGAAACCGCUUAUAC | 0.240 | 0.313 | 0.114 | 0.0671 |
| GGAAACCGGGUAAUC | 0.208 | 0.117 | 0.00668 | 0 |
| GGAAACCGUUACGUC | 0.288 | 0.0558 | 0.0175 | 0 |
| GGAAACCGACGUGCC | 0.176 | 0.0623 | 0.00539 | 0.00537 |
| GGAAACCGGCCCUGC | 0.208 | 0.118 | 0.00668 | 0 |
| GGAAACCGAAUAUCC | 0.224 | 0.0813 | 0 | 0 |
| GGAAACCGGGGCUUC | 0.272 | 0.128 | 0.00668 | 0 |
| GGAAACCGGCCUUUC | 0.208 | 0.0624 | 0.0175 | 0 |
| GGAAACCGCCUUAAC | 0.240 | 0.140 | 0.0108 | 0.00537 |
| GGAAACCGAUGAUGC | 0.320 | 0.0505 | 0.0241 | 0 |
| GGAAACCGGAUUAUC | 0.128 | 0.0759 | 0.0195 | 0 |
| GGAAACCGUGAUCAC | 0.208 | 0.273 | 0.104 | 0.0797 |
| GGAAACCGCGCAUCC | 0.288 | 0.0613 | 0.0108 | 0 |
| GGAAACCGAAGGUCC | 0.160 | 0.0848 | 0.0141 | 0 |
| GGAAACCGUUCUGAC | 0.208 | 0.129 | 0.0195 | 0 |
| GGAAACCGCUACUGC | 0.432 | 0.476 | 0.914 | 0.219 |
| GGAAACCGGGCCGCC | 0.224 | 0.104 | 0 | 0 |
| GGAAACCGUUUUAUC | 0.272 | 0.0848 | 0.0141 | 0.00537 |
| GGAAACCGCUAUCGC | 0.192 | 0.181 | 0.0134 | 0.00537 |
| GGAAACCGCGGGGUC | 0.272 | 0.127 | 0 | 0 |
| GGAAACCGGAAAGAC | 0.272 | 0.0913 | 0.0200 | 0.00537 |
| GGAAACCGGCACCGC | 0.224 | 0.132 | 0 | 0 |
| GGAAACCGAGAAGGC | 0.160 | 0.169 | 0 | 0.00537 |
| GGAAACCGUCCCGUC | 0.240 | 0.101 | 0.0121 | 0 |
| GGAAACCGGAUUGCC | 0.336 | 0.0722 | 0.00539 | 0 |
| GGAAACCGGCGGGAC | 0.192 | 0.269 | 0.00668 | 0 |
| GGAAACCGGUUAAGC | 0.288 | 0.142 | 0.00668 | 0 |
| GGAAACCGCCGAUCC | 0.224 | 0.0669 | 0 | 0 |
| GGAAACCGACGUCAC | 0.336 | 0.0886 | 0 | 0 |
| GGAAACCGGAUACUC | 0.224 | 0.105 | 0.00668 | 0 |

6 of these entries, quoted again:

sequence	pool	inoculated region	leaf margin	systemic leaves
GGAAACCGCAAACAC	0.256	0.380	0.135	0.0161
GGAAACCGGUCGGUC	0.112	0.105	0.00539	0
GGAAACCGGGGCUUC	0.272	0.128	0.00668	0
GGAAACCGAUACUGC	0.272	0.345	0.146	0.0534
GGAAACCGGGUGGGC	0.208	0.0668	0.0175	0.0183
GGAAACCGACGUGCC	0.176	0.0623	0.00539	0.00537

Sequences that differ at fixed positions probably stem from PCR or sequencing errors, and defective variants can be carried along by functional ones.
For reference, wild type rose from 33.9 per thousand in the pool to 202, 200, 159 (inoculated region), 724, 746, 710 (leaf margin) and 856, 883, 880 (systemic leaves).